Data: PMC7038234, “Screening of Natural Extracts for Inhibitors against Japanese Encephalitis Virus Infection” (Antimicrobial Agents and Chemotherapy, 2020)
Where “and” joins values, the source holds several entries; their conditions need not be identical. Equal values may be shown once.

Tested on: JEV strain AT31
Settings: Primary screening of 1034 compounds in the natural extracts library

| SMILES | Inhibition (%) |
| --- | --- |
| C[C@@H]1O[C@@H](O[C@H]2[C@H](O[C@H]3CC[C@@]4(C)[C@@H](CC[C@]5(C)[C@@H]4CC=C4[C@@H]6CC(C)(C)CC[C@]6(C(=O)O[C@@H]6O[C@H](CO[C@@H]7O[C@H](CO)[C@@H](O)[C@H](O)[C@H]7O)[C@@H](O)[C@H](O)[C@H]6O)CC[C@]45C)[C@]3(C)CO)OC[C@H](O)[C@@H]2O)[C@H](O)[C@H](O[C@@H]2O[C@H](CO)[C@@H](O[C@@H]3O[C@H](CO)[C@@H](O)[C@H](O)[C@H]3O)[C@H](O)[C@H]2O)[C@H]1O [Macranthoidin B] | 4.857% |
| COc1ccc([C@H]2OC[C@H]3[C@@H]2CO[C@@H]3c2cc(OC)c(OC)c(OC)c2)cc1OC [Magnolin] | -2.996% |
| OC[C@@H](O)[C@@H](O)[C@H](O)[C@H](O)CO [Mannitol] | 99.5413% |
| OCC1=C[C@@H](O)[C@]2(O[C@@H]3O[C@H](CO)[C@@H](O)[C@H](O)[C@H]3O)C=CO[C@@H](O[C@@H]3O[C@H](CO)[C@@H](O)[C@H](O)[C@H]3O)[C@H]12 [Melittoside] | -7.07% |
| COC[C@]12CN(C)[C@@H]3[C@@H]4[C@H](OC)[C@H]1[C@@]3([C@@H](OC)C[C@H]2O)[C@@H]1C[C@@]2(O)[C@H](OC(=O)c3ccccc3)[C@@H]1[C@]4(OC(C)=O)[C@@H](O)[C@@H]2OC [Mesaconitine] | 60.7058% |
| CC[C@@]1(O)C(=O)OCc2c1cc1n(c2=O)Cc2cc3c(OC)cccc3nc2-1 [Methoxycamptothecin, 9-] | 26.0594% |
| COc1cc(-c2coc3c([C@@H]4O[C@H](CO)[C@@H](O)[C@H](O)[C@H]4O)c(O)ccc3c2=O)ccc1O [Methoxypuerarin, 3'-] | 10.4379% |
| COC(=O)C=Cc1ccc(O)cc1 [Methyl 4-hydroxycinnamate] | -4.744% |
| Cc1c(O)c(C)c2c(c1O)C(=O)[C@H](Cc1ccc3c(c1)OCO3)CO2 [Methylophiopogonanone A] | -14.5068% |
| COc1ccc(C[C@@H]2COc3c(C)c(O)c(C)c(O)c3C2=O)cc1 [Methylophiopogonanone B] | 15.1162% |
| O=c1c(-c2ccc(O)cc2)coc2c([C@@H]3O[C@H](CO[C@@H]4OC[C@](O)(CO)[C@H]4O)[C@@H](O)[C@H](O)[C@H]3O)c(O)ccc12 [Mirificin] | -8.471% |
| CN(C)c1ccc(N)cc1 [N,N-Dimethyl-1,4-phenylenediamine] | -236.384% |
| COc1cc2c3c(c1OC)-c1ccccc1C[C@H]3[N+](C)(C)CC2 [N-Methylnuciferine] | 3.3459% |
| COc1cc2c3c(c1OC)-c1ccccc1C[C@H]3NCC2 [N-Nornuciferine] | 18.0593% |
| COc1cc(-c2oc3cc(O)cc(O)c3c(=O)c2O[C@@H]2O[C@H](CO[C@@H]3O[C@@H](C)[C@H](O)[C@@H](O)[C@H]3O)[C@@H](O)[C@H](O)[C@H]2O)ccc1O [Narcissoside] | 14.3798% |
| O=C(/C=C/c1ccc(O)cc1)c1c(O)cc(O)cc1O [Naringein chalcone] | -2.063% |
| C[C@@H]1O[C@@H](O[C@H]2[C@H](Oc3cc(O)c4c(c3)O[C@H](c3ccc(O)cc3)CC4=O)O[C@H](CO)[C@@H](O)[C@@H]2O)[C@H](O)[C@H](O)[C@H]1O.O [Naringin Hydrate] | 13.8686% |
| O=C1C[C@@H](c2ccc(O)cc2)Oc2cc(O[C@@H]3O[C@H](CO)[C@@H](O)[C@H](O)[C@H]3O)ccc21 [Neoliquiritin] | 2.8527% |
| O=C1OC(=O)[C@H]2[C@@H]1[C@@H]1CC[C@H]2O1 [Norcantharidin] | 10.6149% |
| COc1cc2c(cc1O)C[C@@H]1NCCc3cc(OC)c(O)c-2c31 [Norisoboldine] | -2.363% |
| CC(C)=CCC[C@](C)(O[C@@H]1O[C@H](CO)[C@@H](O)[C@H](O)[C@H]1O)[C@H]1CC[C@]2(C)[C@@H]1[C@H](O)C[C@@H]1[C@@]3(C)CC[C@H](O)C(C)(C)[C@@H]3[C@@H](O[C@@H]3O[C@H](CO)[C@@H](O)[C@H](O)[C@H]3O[C@@H]3OC[C@@H](O)[C@H](O)[C@H]3O)C[C@]12C [Notoginsenoside R1] | -1.263% |
| CN1C[C@@H]2C[C@H](C1)c1cccc(=O)n1C2 [N-Methylcytisine] | 5.573% |
| CC1(C)CC[C@]2(C(=O)O)CC[C@]3(C)C(=CC[C@@H]4[C@@]5(C)CC[C@H](O)C(C)(C)[C@@H]5CC[C@]43C)[C@@H]2C1 [Oleanic acid] | 68.7465% |
| COC1CC(OC2CCC3(C)C(CCC45CCC(C6=CC(=O)OC6)C(C)(CCC43)C5=O)C2)OC(C)C1O (stereo not drawn) [Oleaside A] | 3.4363% |
| C[C@@H]1CC[C@@]2(OC1)O[C@H]1C[C@H]3[C@@H]4CC=C5C[C@@H](O)C[C@@H](O[C@@H]6O[C@H](C)[C@H](O)[C@H](O[C@@H]7OC[C@@H](O)[C@H](O)[C@H]7O)[C@H]6O[C@@H]6O[C@@H](C)[C@H](O)[C@@H](O)[C@H]6O)[C@]5(C)[C@H]4CC[C@]3(C)[C@H]1[C@@H]2C [Ophiopogonin D] | 14.8422% |
| Cc1cc(O)cc(O[C@@H]2O[C@H](CO[C@@H]3O[C@H](CO)[C@@H](O)[C@H](O)[C@H]3O)[C@@H](O)[C@H](O)[C@H]2O)c1 [Orcinol Gentiobioside] | -9.451% |

| SMILES | Inhibition (%) |
| --- | --- |
| Cc1cc(O)cc(OC2O[C@H](CO)[C@@H](O)[C@H](O)[C@H]2O)c1 (stereo partly drawn) [Orcinol glucosid] | 19.2563% |
| O=c1cc(-c2ccccc2)oc2cc(O[C@@H]3O[C@H](CO)[C@@H](O)[C@H](O)[C@H]3O)c(O)c(O)c12 [Oroxin A] | 29.4273% |
| O=c1cc(-c2ccccc2)oc2cc(O[C@@H]3O[C@H](CO[C@@H]4O[C@H](CO)[C@@H](O)[C@H](O)[C@H]4O)[C@@H](O)[C@H](O)[C@H]3O)c(O)c(O)c12 [Oroxin B] | 13.4935% |
| COc1c(O[C@@H]2O[C@H](C(=O)O)[C@@H](O)[C@H](O)[C@H]2O)cc2oc(-c3ccccc3)cc(=O)c2c1O [Oroxylin A 7-O-glucuronide] | 5.69% |
| O=C(/C=C/c1ccc(O)cc1)NCCc1ccc(O)cc1 [Paprazine] | -5.899% |
| O=C(CC(O)(CC(=O)OCc1ccc(O[C@@H]2O[C@H](CO)[C@@H](O)[C@H](O)[C@H]2O)cc1)C(=O)OCc1ccc(O[C@@H]2O[C@H](CO)[C@@H](O)[C@H](O)[C@H]2O)cc1)OCc1ccc(O[C@@H]2O[C@H](CO)[C@@H](O)[C@H](O)[C@H]2O)cc1 [Parishin A] | 28.9901% |
| C[C@H]1CC[C@@]2(O)C(C)(C)[C@@H]3CC[C@@]2(C)[C@H]1C3 [Patchouli alcohol] | 99.3924% |
| C=C(C)[C@@H]1CC=C(/C=N/O)CC1 [Perillartine] | -1.21% |
| CC(C)=CCCc1ccoc1 [Perillen] | 4.067% |
| CO[C@H]1C[C@H](O[C@H]2CC[C@]3(C)[C@H]4CC[C@]5(C)[C@@H](C6=CC(=O)OC6)CC[C@]5(O)[C@@H]4CC[C@]3(O)C2)O[C@H](C)[C@H]1O[C@@H]1O[C@H](CO)[C@@H](O)[C@H](O)[C@H]1O [Periplocin] | 55.5992% |
| COc1cc2c(cc1O)C[C@H]1c3cc(O)c(OC)cc3CC[N+]1(C)C2.[Cl-] (stereo partly drawn) [Phellodendrine chloride] | -2.77% |
| COc1cc2c(cc1O)C[C@H]1c3cc(O)c(OC)cc3CC[N@@+]1(C)C2 [Phellodendrine] | -4.557% |
| COc1ccc([C@H]2OC[C@H]3[C@@H]2CO[C@@H]3c2ccc(OC)c(OC)c2)cc1OC [Pinoresinol dimethyl ether] | 3.198% |
| Cc1cc(O)c(C(=O)CCC(C)C)c(=O)o1 [Pogostone] | 30.1349% |
| C[C@@H]1O[C@@H](O[C@H]2[C@H](OC(=O)[C@]34CCC(C)(C)C[C@H]3C3=CC[C@@H]5[C@@]6(C)C[C@H](O)[C@H](O[C@@H]7O[C@H](CO)[C@@H](O)[C@H](O)[C@H]7O)[C@@](C)(CO)[C@@H]6CC[C@@]5(C)[C@]3(C)CC4)O[C@H](CO)[C@@H](O)[C@@H]2O)[C@H](O)[C@H](O)[C@H]1O[C@@H]1OC[C@@H](O)[C@H](O)[C@H]1O [Polygalasaponin F] | 5.768% |
| C[C@@H]1CC[C@@]2(OC1)O[C@H]1C[C@H]3[C@@H]4CC=C5C[C@@H](O[C@@H]6O[C@H](CO)[C@@H](O)[C@H](O)[C@H]6O[C@@H]6O[C@@H](C)[C@H](O)[C@@H](O)[C@H]6O)CC[C@]5(C)[C@H]4CC[C@]3(C)[C@@]1(O)[C@@H]2C [Polyphyllin VI] | 83.2782% and 63.6797% |
| C/C=C(/C)C(=O)O[C@H]1[C@@H](OC(C)=O)c2c(ccc3ccc(=O)oc23)OC1(C)C [Praeruptorin A] | 66.0418% |
| C/C=C(/C)C(=O)O[C@H]1c2c(ccc3ccc(=O)oc23)OC(C)(C)[C@H]1OC(=O)/C(C)=C\C [Praeruptorin B] | 83.235% |
| C/C=C(/C)C(=O)O[C@@H]1[C@H](OC(=O)CC(C)C)c2c(ccc3ccc(=O)oc23)OC1(C)C [Praeruptorin C] | 92.2514% |
| CC(=O)[C@H]1CC[C@H]2[C@@H]3CC=C4C[C@@H](O)CC[C@]4(C)[C@H]3CC[C@]12C [Pregnenolone] | 32.1775% |
| CC(C)=CCC[C@](C)(O)[C@H]1CC[C@]2(C)[C@@H]1[C@H](O)C[C@@H]1[C@@]3(C)CC[C@H](O)C(C)(C)[C@@H]3[C@@H](O)C[C@]12C [Protopanaxatriol] | 68.9647% |
| CC(C)=CCCC(C)(O)C1CCC2(C)C1C(O)CC1C3(C)CCC(O)C(C)(C)C3CCC12C (stereo not drawn) [Protopanaxdiol] | 77.4457% |
| OCC1(O)COc2cc(O)ccc2-c2cc(O)c(O)cc2C1 (stereo not drawn) [Protosappanin B] | 20.8717% |
| CC1=C(CC[C@@H](C)CO[C@@H]2O[C@H](CO)[C@@H](O)[C@H](O)[C@H]2O)O[C@H]2C[C@H]3[C@@H]4CC=C5C[C@@H](O[C@@H]6O[C@H](CO)[C@@H](O[C@@H]7O[C@@H](C)[C@H](O)[C@@H](O)[C@H]7O)[C@H](O)[C@H]6O[C@@H]6O[C@@H](C)[C@H](O)[C@@H](O)[C@H]6O)CC[C@]5(C)[C@H]4CC[C@]3(C)[C@@H]12 [Pseudoprotodioscin] | 5.664% |
| O=c1c(-c2ccc(O)cc2)coc2c([C@@H]3O[C@H](CO[C@@H]4OC[C@@H](O)[C@H](O)[C@H]4O)[C@@H](O)[C@H](O)[C@H]3O)c(O)ccc12 [Puerarin 6''-O-xyloside] | -7.073% |
